These results are taken from patent US9320731B2, “7-azoniabicyclo[2.2.1]heptane derivatives, methods of production, and pharmaceutical uses thereof” (dated 2016).

The chains behind the UniProt entries cited, without tags or fusion partners.
UniProt P20309, whole entry, looked up: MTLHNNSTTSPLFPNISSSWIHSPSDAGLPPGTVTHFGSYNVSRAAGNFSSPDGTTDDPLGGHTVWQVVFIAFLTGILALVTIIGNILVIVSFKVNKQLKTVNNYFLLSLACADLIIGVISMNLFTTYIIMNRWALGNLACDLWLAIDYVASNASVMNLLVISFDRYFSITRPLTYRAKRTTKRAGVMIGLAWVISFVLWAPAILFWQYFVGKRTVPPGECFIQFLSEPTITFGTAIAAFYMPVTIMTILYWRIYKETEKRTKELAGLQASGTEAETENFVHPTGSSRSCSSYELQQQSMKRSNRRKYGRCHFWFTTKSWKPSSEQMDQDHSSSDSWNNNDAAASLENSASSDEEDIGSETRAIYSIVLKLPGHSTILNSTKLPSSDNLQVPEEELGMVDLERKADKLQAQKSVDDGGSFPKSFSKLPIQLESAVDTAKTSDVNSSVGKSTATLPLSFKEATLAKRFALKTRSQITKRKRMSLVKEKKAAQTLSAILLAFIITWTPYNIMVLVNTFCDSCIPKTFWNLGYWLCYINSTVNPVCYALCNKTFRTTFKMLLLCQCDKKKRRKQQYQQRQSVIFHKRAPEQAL

The test addresses human M3 receptor (Homo sapiens, UniProt P20309). As to the kind of experiment: Muscarinic Receptor Radioligand Binding Assay ([3H]4-DAMP). Conditions: 0.2 nM [3H]4-DAMP; for IC50 / M3 (antagonist) % Inhibition of Control Specific Binding: human M3 receptor-expressing cell homogenates; for Ki: calculated using the Cheng-Prusoff equation, human M3; for M3 (antagonist) % Inhibition of Control Specific Binding: test conc. 10 nM, 120 min, 22° C.

`C[N+]1(C)C2CC[C@H]1[C@@H](OC(=O)[C@](O)(c1ccccc1)C1CCCC1)C2`: the half-inhibitory concentration (IC50) came out at 0.3 nM and the Ki was 0.22 nM.
For `C[N+]1(C)C2CC[C@@H]1[C@@H](OC(=O)[C@](O)(c1ccccc1)C1CCCC1)C2`, in that order: 0.25 nM and 0.18 nM.
In the same order, the values of `C[N+]1(C)C2CC[C@H]1[C@H](OC(=O)[C@@](O)(c1ccccc1)C1CCCC1)C2` are 19 nM and 14 nM.
`C[N+]1(C)C2CC[C@H]1[C@H](OC(=O)[C@](O)(c1ccccc1)C1CCCC1)C2`: the concentration for half-maximal inhibition (IC50) was 0.23 nM and the Ki was 0.16 nM.
As for `C[N+]1(C)C2CC[C@@H]1[C@@H](OC(=O)[C@](O)(c1ccccc1)C1CCCC1)C2.[Br-]`, the “M3 (antagonist) % Inhibition of Control Specific Binding” value (shortened to “M3 (antagonist) % Inhibition”) came to 98%.
On to `C[N+]1(C)C2CC[C@H]1[C@H](OC(=O)[C@](O)(c1ccccc1)C1CCCC1)C2.[Br-]`, for which the “M3 (antagonist) % Inhibition” value is listed as 100%.
For `C[N+]1(C)C2CC[C@@H]1[C@@H](OC(=O)[C@@](O)(c1ccccc1)C1CCCC1)C2`, the IC50 amounted to 2.1 nM and the Ki is 1.5 nM.
Take `C[N+]1(C)C2CC[C@H]1[C@@H](OC(=O)[C@](O)(c1ccccc1)C1CCCC1)C2.[Br-]`: the “M3 (antagonist) % Inhibition” value came to 100%.
`C[N+]1(C)C2CC[C@@H]1[C@@H](OC(=O)[C@@](O)(c1ccccc1)C1CCCC1)C2.[Br-]`: the “M3 (antagonist) % Inhibition” value amounted to 80%.
Still for that read-out and setting: for `C[N+]1(C)C2CC[C@@H]1[C@H](OC(=O)[C@@](O)(c1ccccc1)C1CCCC1)C2.[Br-]` the value was 75%.
Turning to `C[N+]1(C)C2CC[C@H]1[C@@H](OC(=O)[C@@](O)(c1ccccc1)C1CCCC1)C2`, the IC50 turned out to be 36 nM and the Ki was 26 nM.
Consider `C[N+]1(C)C2CC[C@@H]1[C@H](OC(=O)[C@](O)(c1ccccc1)C1CCCC1)C2.[Br-]`, for which the “M3 (antagonist) % Inhibition” value turned out to be 99%.
As to `C[N+]1(C)C2CC[C@@H]1[C@H](OC(=O)[C@@](O)(c1ccccc1)C1CCCC1)C2`, the IC50 was 2.9 nM and the Ki was 2.1 nM.
As for `C[N+]1(C)C2CC[C@H]1[C@H](OC(=O)[C@@](O)(c1ccccc1)C1CCCC1)C2.[Br-]`, the “M3 (antagonist) % Inhibition” value amounted to 30%.
As for `C[N+]1(C)C2CC[C@@H]1[C@H](OC(=O)[C@](O)(c1ccccc1)C1CCCC1)C2`, the IC50 amounted to 0.25 nM and the Ki was 0.18 nM.
As for `C[N+]1(C)C2CC[C@H]1[C@@H](OC(=O)[C@@](O)(c1ccccc1)C1CCCC1)C2.[Br-]`, the “M3 (antagonist) % Inhibition” value is recorded as 9%.
